Experimental data taken from the supplement of paper PMC9931576.
Human monoclonal antibodies against the spike receptor-binding domain (heavy:light variable regions). IC50 against pseudoviruses bearing the spike of naturally observed variants; lower = stronger; >10 µg/ml means not reached at the top dose. No active / inactive call. The stated detection limit is 0.0005 µg/ml; values near or below 0.001 µg/ml lie at the floor of the assay.

B1: BD55-5943 (protein)
chain 1: QVQLVQSGAEVKKPGSSVKVSCKASGGTFSSYATTWVRQAPGQGLEWMGGLIPMFGTANYAQKFQGRVTITADESTSTAYMELRSLRSEDTAVYYCARWAVLLWFEEGRDFYGLDVWGQGTTVTVSS
chain 2: DIQMTQSPSSLSASVGDRVTITCRASQSISNYLNWYQQKPGIAPKLLIYATSSLQSGVPSRFSGSGSGTEFTLTITGLQPEDFETYYCQQSDSTPYTFGQGTKLEIK
B2: BD55-5925 (protein)
chain 1: QVQLVQSGADVKKPGASVKVSCKASGYTFTSYYLHWVRQAPGQGLEWMGIINPSGGTIAYAQKFQGRVTMTRDTSTSTVYMELSSLRSEDTAVYYCASDITGGNYGYLQHWGQGTLVTVSS
chain 2: QSVLTQPPSASGTPGQRVTISCSGSRSNIGSNYVFWYQQLPGTAPKLLIYKNNQRPSGVPDRFSGSKSGTSASLAISGLRSEDEADYYCAGWDDSLNGWVFGGGTKLTVL
B3: BD55-1128 (protein)
chain 1: EVQLLESGGGLVQRGGSVRLSCAASGFPFVNYAMSWVRQAPGKGLEWVSAISDTGGLRFYADSVKGRFTISRDNSKNTVYLQMSSLRAEDTAVYYCARESMRELVGPNWFDPWGQGTVVTVSS
chain 2: DIQMTQSPSSLSASVGDRVTITCRASQSVSNYLNWYQQRPGKAPKLLIYAASILQSGVPLRFSGSGSGTDFTLTITNLQPEDFATYYCQQSYAAPPWTFGQGTKVEIK
B4: BD55-5906 (protein)
chain 1: QITLKESGPMVVKPTQTLTLTCTISGFSLSTTEVGVGWIRQPPGKALEWLALIYWDDDKRFSPSLKSRLTITKDSSKNQVVLTMTNMDRLDTATYYCAHSQYDFSIGFSGFDYWGPGTPVTVSS
chain 2: DIVMTQTPLSSPVTLGQPASISCRSSQSLVHSDGNAYLNWLQHRPGQPPRLLIYQISRRFSGVPDRFSGSGAGTDFTLNISRVEAEDVGVYYCMQATQFPHEMYTFGQGTKLEIK
B5: BD55-5930 (protein)
chain 1: EVQLVESGGGLVQPGGSLRLSCAASGFSFSAFGMNWVRQAPGKGLEWVSYISGSSSAIYYADSVRGRFTISRDNAKNSLFLQMNSLRAEDTAVYYCAREGQQWLVLTNWRGPFDPWGQGTLVTVSS
chain 2: EIVLTQSPGTLSLSPGERATLSCRASQSLSSIINLAWYQQKPGQAPRLLIYGASSRATGIPDRFSGSGSGADFTLTISRLEPEDFAVYYCQQYGGSPPFTFGPGTKVDIK
B6: BD55-5916 (protein)
chain 1: QVQLVESGGGLVKPGGSLRLSCAASGFTFSDYSMSWVRQAPGKGLEWVEWVSYITSTGTIYYADSVKGRFTISRDNAKNSLYLQMNSLRAEDTAVYYCARSLQLRYFDWVPDYWGQGTLLTVSS
chain 2: ETVMTQSPATLSVSPGEGATLSCRASQSVSSNLAWYQQKPGQAPRLLIYSASTRATGIPARFSGSGSGTEFTLTISSLQSEDFAVYYCQQYHNWPPGRTFGQGTRVEIK
B7: BD55-5935 (protein)
chain 1: QVQLVQSGGEVKKPGASVKVSCKASGNTFTRYGISWVRQAPGQGLEWMAWISVHNGNTNYAQKFQDRVTMTTETSTNTVYMELRSLRSDDTAVYYCARLTYYYDSSGYSELQMYYFDNWGQGTLVTVSS
chain 2: DIQMTQSPSSLSASVGDRVTISCRASQSISTYLHWYQHKPGRAPQLLIFAASSLQSGVPSRFSGSGSGTDFTLTISSLRPEDSATYYCQQSYSTFLTFGGGTKVEIK
B8: BD55-5945 (protein)
chain 1: EEQLVESGGGLVQPGRSLRLSCAASGFTFGDYTMHWVRQPPGRGLEWVSRIFWNSGNIGYADSVKGRFTISRDNAKNSLYLQMNSLRAEDTALYYCAKEIGGLGYSGYDFFSGNAIDIWGRGTMVTVSS
chain 2: QSVLTQPPSVSGAPGQTVTISCTGTTSNIGAGYDVHWYQQLPGAAPKLLIYVNNNRPSGVPDRFSGSKSGTSASLAITGLQADDEADYYCQSFDSSLSGSYVFGTGTKVTVV
B9: BD55-5933 (protein)
chain 1: EVQLVESGGGLVKPGGSLRLSCEVSGFIFSSYSINWVRQAPGKGLEWVSSISGSSTFKFSAESVEGRFTISRDNARNSAYLQMNSLRVEDTAVYYCATNYVSLGSHVDAEYFHHWGQGTLVTVSS
chain 2: EIVLTQSPAILSLSPGERATLSCRASQSIGNFLAWYQQKPGQAPRLLIYDASIRATGIPARFSGSGSGTDFTLTISSLEPEDFAVYYCQQRNTWPPLTFGGGTKVEIK
B10: BD55-5921 (protein)
chain 1: LVESGGGSVKPGESLRLSCEGSGFIFPNVWLSWVRQVPGKGLEWVGRIKRQSDGGTADYAAAVKGRFSILRDDSRQEVVLQMNNVKSEDTAVYYCTTGATHYIYTANNFFDTWGQGILVDVSS
chain 2: QSVLTQPPSASGTPGQRVTISCSGGSSNIGSNSVAWYQQVPGAAPKLLIFSDFQRPLGVPDRFFGSRSGTSASLAISRLQSEDGADYYCATWDDSLSGLVFGGGTNLIVL
B11: BD55-5914 (protein)
chain 1: QVQLVQSGAEVKKPGASVKVSCKASGYTFANYDIIWVRQANGQGLEWMGWLNPNTGATGYAHKFQGRVTMTRDTSTNIVYMELSSLSSDDSAVYYCAREVVVLPEAARRFDSWGQGTLVTVSS
chain 2: DVQMTQSPSSLSASIGDRVTLTCRASQSITTYLNWYQQRPGKAPKLLIYAASTLQSGVPSRFSGSGSGTDFTLTISSLQREDFATYYCQQSYSTSYSFGQGTKVEIK
B12: BD55-5940 (protein)
chain 1: QVQLQESGPGLVKPSQTLSLTCSVSGGSITGGIYYWSWIRQPAGKGLEWIGHVDSSGSTNYNPSLKSRVSISVLTSKNEFSLQVSSATAADTAVYYCARDSWTSTPLGYYYYMDVWGKGTTVTVSS
chain 2: DVLMTQSPSTLSASVGDRVTITCRASQSVNTWLAWYQQKPGKAPKLLIYKASSLESGVPSRFSGSGSGTEFTLTISSLQPDDFATYYCQQFNGFLYTFGQGTKLEIK

The binders below were run against SARS-CoV-2 Omicron BA.1 spike pseudovirus (assay: pseudovirus neutralization IC50; higher = weaker neutralization).
Method: (§1)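 Single-round VSV luciferase pseudovirus mixed with antibody dilutions for 1 h and put on Huh-7 cells for about a day; IC50 from the dose curve.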

Binder	pseudovirus neutralization IC50
B1	> 10 µg/mL
B2	> 10 µg/mL
B3	> 10 µg/mL
B4	> 10 µg/mL
B5	> 10 µg/mL
B6	> 10 µg/mL
B7	0.16 µg/mL
B8	> 10 µg/mL
B9	> 10 µg/mL
B10	> 10 µg/mL
B11	> 10 µg/mL
B12	> 10 µg/mL

Each binder was assayed against SARS-CoV-2 Omicron BA.2 spike pseudovirus in the same assay as above.
Method: as §1

Binder	pseudovirus neutralization IC50
B1	> 10 µg/mL
B2	> 10 µg/mL
B3	> 10 µg/mL
B4	> 10 µg/mL
B5	> 10 µg/mL
B6	> 10 µg/mL
B7	> 10 µg/mL
B8	> 10 µg/mL
B9	> 10 µg/mL
B10	> 10 µg/mL
B11	> 10 µg/mL
B12	> 10 µg/mL

Each binder was assayed against SARS-CoV-2 Omicron BA.2.75 spike pseudovirus in the same assay as above.
Method: as §1

Binder	pseudovirus neutralization IC50
B1	> 10 µg/mL
B2	> 10 µg/mL
B3	> 10 µg/mL
B4	> 10 µg/mL
B5	> 10 µg/mL
B6	> 10 µg/mL
B7	> 10 µg/mL
B8	> 10 µg/mL
B9	> 10 µg/mL
B10	> 10 µg/mL
B11	> 10 µg/mL
B12	> 10 µg/mL

What follows are binders tested against SARS-CoV-2 Omicron BA.5 spike pseudovirus in the same assay as above.
Method: as §1

Binder	pseudovirus neutralization IC50
B1	> 10 µg/mL
B2	> 10 µg/mL
B3	> 10 µg/mL
B4	> 10 µg/mL
B5	> 10 µg/mL
B6	> 10 µg/mL
B7	> 10 µg/mL
B8	> 10 µg/mL
B9	> 10 µg/mL
B10	> 10 µg/mL
B11	> 10 µg/mL
B12	> 10 µg/mL

What follows are binders tested against SARS-CoV-2 Omicron BQ.1.1 spike pseudovirus in the same assay as above.
Method: as §1

Binder	pseudovirus neutralization IC50
B1	> 10 µg/mL
B2	> 10 µg/mL
B3	> 10 µg/mL
B4	> 10 µg/mL
B5	> 10 µg/mL
B6	> 10 µg/mL
B7	> 10 µg/mL
B8	> 10 µg/mL
B9	> 10 µg/mL
B10	> 10 µg/mL
B11	> 10 µg/mL
B12	> 10 µg/mL

These binders were tested against SARS-CoV-2 Omicron XBB spike pseudovirus in the same assay as above.
Method: as §1

Binder	pseudovirus neutralization IC50
B1	> 10 µg/mL
B2	> 10 µg/mL
B3	> 10 µg/mL
B4	> 10 µg/mL
B5	> 10 µg/mL
B6	> 10 µg/mL
B7	> 10 µg/mL
B8	> 10 µg/mL
B9	> 10 µg/mL
B10	> 10 µg/mL
B11	> 10 µg/mL
B12	> 10 µg/mL

The binders below were run against SARS-CoV-2 early D614G spike pseudovirus in the same assay as above.
Method: as §1

Binder	pseudovirus neutralization IC50
B1	> 10 µg/mL
B2	0.00287 µg/mL
B3	> 10 µg/mL
B4	0.0228 µg/mL
B5	> 10 µg/mL
B6	> 10 µg/mL
B7	0.0346 µg/mL
B8	0.0844 µg/mL
B9	> 10 µg/mL
B10	> 10 µg/mL
B11	> 10 µg/mL
B12	> 10 µg/mL
